{"source": "paper PMC8954220", "about": "“Sparsomycin Exhibits Potent Antiplasmodial Activity In Vitro and In Vivo” (Pharmaceutics, 2022)", "key": {"P. falciparum 3D7": {"test_system": "P. falciparum 3D7", "experiment": "SYBR Green I-based fluorescence in vitro growth inhibition assay", "format": "cell-based, Plasmodium falciparum", "conditions": "selectivity index, ratio between IC50 (3D7) and CC50 (HFF)"}, "P. falciparum K1": {"test_system": "P. falciparum K1", "experiment": "SYBR Green I-based fluorescence in vitro growth inhibition assay", "format": "cell-based, Plasmodium falciparum", "conditions": "selectivity index, ratio between IC50 (K1) and CC50 (HFF)"}}, "data": [{"smiles": "CCN(CC)CCCC(C)Nc1ccnc2cc(Cl)ccc12", "note": "(centres unmarked) [Chloroquine, Chloroquine diphosphate, reference compound]", "values": [{"measurement": "SI for P. falciparum 3D7", "setting": "P. falciparum 3D7", "value": 790.46}, {"measurement": "SI for P. falciparum K1", "setting": "P. falciparum K1", "value": 27.98}]}]}
